PubChem BioAssay AID624099, ICCB-Longwood – 2012
The whole screen tested about 21,000 reagents; this is an unselected part. Over the whole deposit, 497 (2.4%) were called active. 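Higher z means weaker E2 silencing; only reporter increases were scored, and knock-downs that hurt cell survival may mask genuine repressor factors.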 A number with no mark means an inactive call. Reagents against one gene are numbered here.

- Screen: 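Knock-downs relieving repression by E2 of an HPV18 LCR luciferase reporter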 (primary screen)
- Cell system: human C33A cervical carcinoma cells (HPV-negative) stably expressing BPV1 E2 and an HPV18 LCR luciferase reporter
- Knock-down reagent: siRNA pool against human genes, 40 nM
- Timing: 72 h
- Read-out: 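Per-well luciferase luminescence, z-scored on each plate against the plate mean and SD with control wells left out, then averaged across three replicate plates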
- Reading the numbers: mean z-score and z-score: higher = stronger reporter signal, weaker E2 silencing
- Call rule: 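Hit if mean z-score reaches 2 and two or more of three replicate z-scores also reach 2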

target gene	reagent	mean z-score	z-score, replicate A	z-score, replicate B	z-score, replicate C
MRGPRD (MAS related GPR family member D)	1	2.17 (active)	1.94	2.4	2.17
GGT5 (gamma-glutamyltransferase 5)	1	-1.31	-1.12	-1.41	-1.39
DHFR2 (dihydrofolate reductase 2)	1	0.02	0.04	0.5	-0.47
CSF3 (colony stimulating factor 3)	1	0.66	0.92	0.5	0.57
SPAG6 (sperm associated antigen 6)	1	-0.01	-0.01	-0.2	0.18
MORN2 (MORN repeat containing 2)	1	-1.34	-1.26	-1.46	-1.31
PIM3 (Pim-3 proto-oncogene, serine/threonine kinase)	1	-2.59	-2.02	-2.83	-2.91
PPM1D (protein phosphatase, Mg2+/Mn2+ dependent 1D)	1	-0.98	-1.08	-0.7	-1.16
MEIOSIN (meiosis initiator)	1	-0.2	-0.18	-0.26	-0.15
PTCD2 (pentatricopeptide repeat domain 2)	1	-2.08	-2.17	-2.25	-1.8
LST1 (leukocyte specific transcript 1)	1	0.72	0.86	0.81	0.49
KSR2 (kinase suppressor of ras 2)	1	-0.48	-0.28	-0.76	-0.4
TMUB2 (transmembrane and ubiquitin like domain containing 2)	1	0.33	0.34	0.39	0.25
RNF34 (ring finger protein 34)	1	-0.07	0.1	-0.1	-0.2
STK10 (serine/threonine kinase 10)	1	-1.25	-0.76	-1.64	-1.36
GLDN (gliomedin)	1	-1.02	-1.09	-1.05	-0.91
NTS (neurotensin)	1	1.16	0.96	1.36	1.16
TUBD1 (tubulin delta 1)	1	-0.96	-1.02	-0.97	-0.9
KIFAP3 (kinesin associated protein 3)	1	-0.16	0.15	-0.42	-0.2
OR2L8 (olfactory receptor family 2 subfamily L member 8)	1	0.32	0.32	-0.16	0.79
CACNA1C (calcium voltage-gated channel subunit alpha1 C)	1	-1.64	-1.82	-1.62	-1.48
CACNA1C (calcium voltage-gated channel subunit alpha1 C)	2	0.43	0.43	0.75	0.12
BAZ1B (bromodomain adjacent to zinc finger domain 1B)	1	1.21	1.07	1.1	1.46
